{"source": "patent US20230233538A1", "about": "“COMPOSITION FOR TREATING CORONAVIRUS DISEASE-19, COMPRISING PHENANTHROINDOLIZIDINE AND PHENANTHROQUI[…] DERIVATIVES, OPTICAL ISOMER THEREOF, OR PHARMACEUTICALLY ACCEPTABLE SALTS THEREOF AS ACTIVE INGREDIENT” (priority 2020, published 2023)", "assay": "in vitro", "details": "African green monkey, Cytotoxic Concentration 50 (CC50)"}
{"molecule": "COc1ccc2c3c(c4cc(OC)c(OC)cc4c2c1)C[C@H]1CCCCN1C3", "note": "[cryptopleurin]", "values": [{"measurement": "CC50", "value": 62, "unit": "nM"}]}
